SMILES strings stand for the structures. This is a selection; strong and weak results do not stand in their true shares. Calls of active or inactive are those of the source. Cut-off read from the data, not from the text of the source: active = activity change below about -50%; inconclusive = between about -30% and that limit; inactive = weaker than that.
% is set by controls: 0 for no effect and ±100 for the full control effect.

Chains of the proteins cited; added tags and fusions are not shown.
UniProt Q9GZU1, whole entry: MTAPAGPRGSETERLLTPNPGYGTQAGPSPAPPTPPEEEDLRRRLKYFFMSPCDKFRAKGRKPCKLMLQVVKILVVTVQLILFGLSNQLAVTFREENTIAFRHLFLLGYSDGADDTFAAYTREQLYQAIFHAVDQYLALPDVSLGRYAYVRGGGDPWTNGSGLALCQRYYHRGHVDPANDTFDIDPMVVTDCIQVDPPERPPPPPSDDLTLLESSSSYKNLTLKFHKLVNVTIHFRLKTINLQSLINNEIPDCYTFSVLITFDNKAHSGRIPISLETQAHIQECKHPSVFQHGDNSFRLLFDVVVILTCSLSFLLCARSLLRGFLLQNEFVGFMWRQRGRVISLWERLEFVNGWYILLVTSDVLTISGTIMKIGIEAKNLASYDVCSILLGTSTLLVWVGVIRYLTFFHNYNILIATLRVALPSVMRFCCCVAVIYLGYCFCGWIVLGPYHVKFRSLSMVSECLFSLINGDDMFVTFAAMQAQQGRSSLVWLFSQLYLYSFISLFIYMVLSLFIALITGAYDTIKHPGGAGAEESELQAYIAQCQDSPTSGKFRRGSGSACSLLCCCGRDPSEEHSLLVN

The assay addresses Mucolipin-1 (Homo sapiens) (UniProt Q9GZU1). Kind of assay: qHTS for Inhibitors of the Human Mucolipin Transient Receptor Potential 1 (TRPML1).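 Note: stimulus is agonist 54-4 at its EC80 concentration.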 The note with it: TRPML1-inducible cells, Ca2+ dye fluorescence, FDSS; stronger effect = lower value; inhibition of EC80 agonist-evoked calcium signal. The source says:
Mutations of human Mucolipin transient receptor potential 1 (TRPML1) cause type IV mucolipidosis (ML4), a devastating neurodegenerative disease in young children. […] Currently, there is no treatment for ML4. […] Under physiological conditions, TRPMLs regulate membrane trafficking by transducing information about PI(3,5)P2 levels into changes in juxtaorganellar Ca2+, thereby triggering membrane fusion/fission events in the late endocytic pathways (endolysosomal trafficking). In addition, TRPML1 mediates release of Fe2+ from late endosomes and lysosomes, which is essential for cellular iron metabolism. Thus, impaired ion (Ca2+ and Fe2+) homeostasis underlies lysosomal dysfunction and ML4 phenotypes. In ML4 cells, the problem is twofold. First, defective Ca2+-dependent membrane trafficking due to TRPML1-deficiency causes accumulation of lipids and other bio-materials in the lysosome. The second strike comes from the lysosomal iron overload (due to impairment of TRPML1's Fe2+ conductivity), which converts the accumulated materials into the nondegradable (resistant to lysosomal degradation) lipofuscin (also called aging pigment) in the lysosome. Lipofuscin accumulation dramatically compromises the functions of lysosomes.
Niemann-Pick type C (NPC) disease is another lysosome storage disease (LSD) with severe neurodegeneration during the childhood. Currently, there is no cure for NPC. […] Thus, TRPML1 is likely to be an essential regulator of lysosome ion homeostasis. We specifically hypothesize that stimulating TRPML1's Fe2+/Ca2+ channel activity in the lysosome using synthetic agonists can alleviate neurodegeneration associated with ML4 or NPC.
To this end, a high throughput screen was developed in a miniaturized format to screen against the Molecular Libraries Small Molecule Repository (MLSMR) to find small molecules that act either as inhibitors or agonist against the TRPML1 channel.
NIH Chemical Genomics Center [NCGC]
NIH Molecular Libraries Probe Centers Network [MLPCN]
Assay Submitter (PI): Haoxing Xu, University of Michigan Ann Arbor
TRPML1-DL cells are dissociated from flasks, counted and, brought up to a density of 500,000 cells per mL of media containing a 1X Tet inducer. Using a Multidrop Combi, 3 uL of this cell solution is dispensed to each well of a 1536 TC treated, black, clear bottom hi base plate for a final cell density of 1,500 cells per well. The assay plates are incubated overnight (approximately 16 hours) at 37 degrees C and 5% CO2. Using a Multidrop Combi, 2 uL of ABD Ca8 no wash dye plus quencher is added to each well. The assay plates incubate at room temperature in the dark for 45-90 minutes. The assay plate is read on the FDSS using the following protocol: 10 second baseline read, 23 nL of compounds and controls are added using 1536 pintool, agonist read for 110 seconds, 1 uL EC80 addition (4 uM final 54-4 diluted in media), antagonist read for 110 seconds.
With `CSc1ccc(Nc2c([N+](=O)[O-])cc([N+](=O)[O-])cc2[N+](=O)[O-])cc1`, the activity change, negative = inhibition was inactive: 9.92%.

Take `O=[N+]([O-])c1cc([N+](=O)[O-])c(O)c([N+](=O)[O-])c1.c1ccc(Oc2ccncc2)cc1`: the activity change, negative = inhibition is inactive: -4.95%.

On to `CCOC(=O)c1ccc(NP(C)(=O)Oc2ccc(OC)cc2)cc1` (stereo not drawn), for which the activity change, negative = inhibition is inactive: 6.32%.

As to `CCOC(=O)c1ccc(NC(=O)C(C)(CCl)SC)cc1` (stereo not drawn), the activity change, negative = inhibition is inactive: 35.2%.

On to `COP(=O)(OC)N1CC1c1ccccc1` (stereo not drawn), for which the activity change, negative = inhibition was inactive: 13.4%.

As to `CCCCOc1ccc(C(=O)NCC2(N3CCCCC3)CCCCC2)cc1OC`, the activity change, negative = inhibition was inactive: -1.54%.

For the compound `Cc1cc(SC(NC(=O)c2ccccc2)C(Cl)(Cl)Cl)nc(C(C)C)n1` (stereo not drawn), the activity change, negative = inhibition is inactive: -14.2%.

Regarding `O=C(O)C(=O)c1ccc(N(CCCl)CCCl)cc1.c1ccc(Nc2ccccc2)cc1`, the activity change, negative = inhibition is inactive: 92.3%.

With `CC1CCNP(=O)(N(CCCl)CCCl)O1` (stereo not drawn), the activity change, negative = inhibition is inactive: 7.16%.

Regarding `Cc1cc(SC(NC=O)C(Cl)(Cl)Cl)ncn1` (stereo not drawn), the activity change, negative = inhibition is inactive: 15.5%.

Consider `O=P(Nc1ccccn1)(c1cccc2ccccc12)c1cccc2ccccc12`, for which the activity change, negative = inhibition is inactive: -17%.

For `COc1ccccc1OP(C)(=O)Nc1ccccc1` (stereo not drawn), the activity change, negative = inhibition is inactive: 14.6%.

For the compound `CP(=O)(Nc1ccccc1Br)Oc1ccccc1` (stereo not drawn), the activity change, negative = inhibition is inactive: -10.3%.

On to `O=[N+]([O-])c1ccc(Nc2ccc(Oc3ccc([N+](=O)[O-])cc3[N+](=O)[O-])cc2)c([N+](=O)[O-])c1`, for which the activity change, negative = inhibition is inactive: 4.91%.

For the compound `CP(=S)(Nn1cnnc1)Oc1ccccc1` (stereo not drawn), the activity change, negative = inhibition was inactive: -9.66%.

As to `CCOC(=O)Nc1cccc([As](=O)(O)O)c1`, the activity change, negative = inhibition was inactive: 48.2%.

Turning to `O=[N+]([O-])c1cc([N+](=O)[O-])c(Nc2nnnn2CCO)c([N+](=O)[O-])c1`, the activity change, negative = inhibition is inactive: -4.55%.

As for `CC1=C2N=C(C=C3N=C(C(C)=C4[N-][C@@](C)([C@@H]5N=C1[C@](C)(CCC(=O)NC[C@@H](C)OP(=O)([O-])O[C@H]1[C@@H](O)[C@@H](n6cnc7cc(C)c(C)cc76)O[C@@H]1CO)[C@H]5CC(N)=O)[C@@](C)(CC(N)=O)[C@@H]4CCC(N)=O)[C@@](C)(CC(N)=O)[C@@H]3CCC(N)=O)C(C)(C)[C@@H]2CCC(N)=O.[C-]#N.[Co+3]`, the activity change, negative = inhibition was inactive: -5.45%.

With `CN(C)C1(CNC(=O)c2ccc(S(C)(=O)=O)cc2)CCCCC1`, the activity change, negative = inhibition was inactive: 0.819%.

For `O=C(/C=C/c1ccccc1)OC1CN2CCC1CC2` (stereo not drawn), the activity change, negative = inhibition was inactive: -4.04%.

Turning to `CCCC1OP(=O)(Nc2ccccc2)OCC1CC` (stereo not drawn), the activity change, negative = inhibition was inactive: 3.75%.

In the case of `Cc1nn(-c2ccccc2)c2c1P(=O)(N1CCOCC1)N(C)C(c1ccccc1)=N2` (stereo not drawn), the activity change, negative = inhibition was inactive: 6.86%.

As to `Cc1ccc(C(=O)OC2CN3CCC2CC3)cc1` (stereo not drawn), the activity change, negative = inhibition was inactive: 6.39%.

As for `CC1CCC(C(C)C)C(OP(=O)(Nc2ccccn2)c2ccccc2)C1` (stereo not drawn), the activity change, negative = inhibition was inactive: 9.52%.

Regarding `COc1cc(C2NCCC3(OCCO3)C2(C)C)cc(OC)c1OC.O=[N+]([O-])c1cc([N+](=O)[O-])c(O)c([N+](=O)[O-])c1` (stereo not drawn), the activity change, negative = inhibition is inactive: 12.7%.

For `Nc1cccc([As](=O)(O)c2ccccc2)c1`, the activity change, negative = inhibition is inactive: -13.4%.

In the case of `CP(=O)(Nc1ccc(SC(F)(F)F)cc1)Oc1ccccc1` (stereo not drawn), the activity change, negative = inhibition was inactive: 28.8%.

In the case of `CCCOc1ccc(NP(C)(=O)Oc2ccc(Cl)cc2)cc1` (stereo not drawn), the activity change, negative = inhibition was inactive: 22.6%.

For `NS(=O)(=O)c1cccc(NC(=O)COC(=O)C(O)(c2ccccc2)c2ccccc2)c1`, the activity change, negative = inhibition is inactive: 0.487%.

As to `O=P1(Nc2ccc(Br)cn2)COc2ccccc2OC1`, the activity change, negative = inhibition is inactive: -15.4%.

`Cc1ccc(OCC(=O)OC2CN3CCC2CC3)cc1` (stereo not drawn): the activity change, negative = inhibition was inactive: 15.2%.

With `O=[As](O)(c1cccs1)c1cccs1`, the activity change, negative = inhibition is inactive: -0.507%.

With `O=P1(Nc2ncccn2)COc2ccccc2OC1`, the activity change, negative = inhibition is inactive: 1.12%.

With `CN1CCCCC1COC(=O)C1(O)c2ccccc2CCc2ccccc21` (stereo not drawn), the activity change, negative = inhibition is inactive: -16.9%.

`COc1ccccc1OP(C)(=O)Nc1c(C)cccc1C` (stereo not drawn): the activity change, negative = inhibition is inactive: 2.81%.

Regarding `Clc1n[nH]nc1-c1nn[nH][15n]1`, the activity change, negative = inhibition is inactive: -23.6%.

For the compound `O=P1(N(CCCl)CCCl)NCCC(C(F)(F)F)O1` (stereo not drawn), the activity change, negative = inhibition was inactive: 13.5%.

On to `CC(C)(C)C(=O)NC(Sc1ncccn1)C(Cl)(Cl)Cl` (stereo not drawn), for which the activity change, negative = inhibition was inactive: 15.5%.

For the compound `O=C(O)C(O)c1ccc(N(CCCl)CCCl)cc1.c1ccncc1` (stereo not drawn), the activity change, negative = inhibition is inactive: 8.96%.

Turning to `CCC1=CC2Cc3nc4ccc(Cl)cc4c(N)c3C(C1)C2` (stereo not drawn), the activity change, negative = inhibition is inactive: 0.974%.

Regarding `O=P1(Nc2ccccn2)COc2ccccc2OC1`, the activity change, negative = inhibition was inactive: 2.58%.

Consider `CCOP(=O)(NC(=NC(C)c1ccccc1)NC(C)c1ccccc1)OCC` (stereo not drawn), for which the activity change, negative = inhibition was inactive: 6.89%.

Take `O=[N+]([O-])c1cc([N+](=O)[O-])c(-n2nnc3ccccc32)c([N+](=O)[O-])c1`: the activity change, negative = inhibition was inactive: -15.5%.

As for `CN(CCCl)Cc1cc(Cl)c(NC2=NCCN2)c(Cl)c1`, the activity change, negative = inhibition was inactive: 35.4%.

In the case of `CCOP(=O)(Nc1ccc(C)cn1)OCC`, the activity change, negative = inhibition is inactive: -27.4%.

Regarding `CN(C(=O)Cc1ccc(Cl)c(Cl)c1)[C@@H]1CCCC[C@H]1N1CCCC1`, the activity change, negative = inhibition was inactive: -1.05%.

With `CC(C)/C=N\N=C(\N)N[N+](=O)[O-]`, the activity change, negative = inhibition is inactive: -2.55%.

For the compound `CC1(CBr)Cn2c(nc3ccccc3c2=O)S1` (stereo not drawn), the activity change, negative = inhibition was inactive: 4.76%.

For the origin of these results see PubChem BioAssay AID624415 (National Center for Advancing Translational Sciences (NCATS), 2012).
